Assay results published in patent US8835615B2, “2′-fluorine-4′-substituted-nucleoside analogues, preparation methods and uses thereof” (priority 2007, dated 2014).

System: HIV-1 IIIB
Assay: Anti-HIV-1 activity in MT-4 cell culture (P24 antigen)
Type: cell-based
Conditions: for SI HIV-infected: CC50 of HIV-infected cells / IC50; for SI HIV-uninfected: CC50 of uninfected cells / IC50

SMILES | SI HIV-infected | SI HIV-uninfected
Cc1cn([C@H]2C[C@H](N=[N+]=[N-])[C@@H](CO)O2)c(=O)[nH]c1=O [AZT, Zidovudine, reference compound] | >3434 | >3434
C#CC1(CO)OC(n2ccc(N)nc2=O)C(F)C1O (stereo not shown) [Compound 1] | 432 | 405
CC1(CO)OC(n2ccc(O)nc2=O)C(F)C1O (stereo not shown) [Compound 9] | 298 | 291
[N-]=[N+]=NC1(CO)OC(n2ccc(N)nc2=O)C(F)C1O (stereo not shown) [Compound 15] | >100000 | >100000
C#CC1(CO)OC(n2cnc3c(F)ncnc32)C(F)C1O (stereo not shown) [Compound 19] | 487 | 422
CC1(CO)OC(n2cnc3c(O)ncnc32)C(F)C1O (stereo not shown) [Compound 36] | 276 | 296
N#CC1(CO)OC(n2cnc3c(N)ncnc32)C(F)C1O (stereo not shown) [Compound 39] | 26 | 25
N#CC1(CO)OC(n2cc(F)c3c(O)ncnc32)C(F)C1O (stereo not shown) [Compound 46] | 370 | 423
[N-]=[N+]=NC1(CO)OC(n2cc(F)c3c(N)ncnc32)C(F)C1O (stereo not shown) [Compound 50] | 12 | 12
C#CC1(CO)OC(n2cc(F)c3c(N)ncnc32)C(F)C1O (stereo not shown) [Compound 52] | 311 | 290
Cc1ccnc2c1NC(=O)c1cccnc1N2C1CC1 [NVP, Nevirapine, reference compound] | >3434 | >3434
